Read-outs that look alike come from different tables or passages of the source.
Key:
[1] = test system: L. pifanoi axenic amastigotes; assay: Leishmanicidal activity on axenic amastigotes (MTT reduction)
[2] = test system: L. infantum promastigotes; assay: Leishmanicidal activity on promastigotes (MTT reduction), Table 2 and Table S1; format: cell-based, Leishmania infantum
Description: Both activities were assessed by inhibition of MTT (3-(4,5-dimethylthiazol-2-yl)-2,5-diphenyltetrazolium bromide) reduction, as described in [34]. Samples were made in triplicate and assays were repeated at least twice. DMSO content in the medium was adjusted to 0.25% v/v (final concentration), regardless of the final concentration of the drug, and for the control, the untreated parasites. ICx (inhibitory concentration that inhibits parasite growth or enzymatic activity by x%) was calculated using the statistical module of SigmaPlot v11.0 software.
In a step ahead, the leishmanicidal activity of the compounds on L. pifanoi axenic amastigotes and L. infantum promastigotes was evaluated. Axenic Leishmania amastigotes afford the appraisal of the leishmanicidal activity without the constrains imposed on the access of the compounds to intracellular amastigotes within the parasitophorous vacuole, as well as to preclude the interference of the compounds via host–parasite interface in the final activity. For that, the axenic line of L. pifanoi amastigotes belonging to the mexicana complex was chosen, as in this species the infectivity, antigenicity, and metabolic identity between axenic and intracellular amastigotes have been consistently validated.

Sequences of proteins named here, by UniProt entry; tags and fusion partners are left off. Residues count along the entry.
UniProt A6N857, 1-355: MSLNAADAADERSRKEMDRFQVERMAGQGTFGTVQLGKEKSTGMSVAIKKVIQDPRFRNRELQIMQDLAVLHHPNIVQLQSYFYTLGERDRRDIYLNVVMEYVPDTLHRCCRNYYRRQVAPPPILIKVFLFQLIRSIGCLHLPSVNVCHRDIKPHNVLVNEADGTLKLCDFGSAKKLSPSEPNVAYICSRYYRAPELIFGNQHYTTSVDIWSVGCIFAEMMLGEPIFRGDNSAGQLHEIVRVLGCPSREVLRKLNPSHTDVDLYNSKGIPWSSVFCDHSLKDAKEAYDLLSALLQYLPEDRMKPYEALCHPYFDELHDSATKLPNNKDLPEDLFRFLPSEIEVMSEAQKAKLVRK

LdGSK-3s = LdGSK-3s (Leishmania donovani, UniProt A6N857); assay: Inhibition of recombinant LdGSK-3s with Kinase Glo; format: biochemical
Description: Extraction, purification, and evaluation of compounds against recombinant LdGSK-3s was carried out as described. For that, a recombinant LdGSK-3s with a His-tag was obtained as inclusion bodies, that were further solubilized, and purified by chromatography first on a Ni^2+ column an in a second step on a DEAE (diethylaminoethyl) ionic exchange column. Samples were made in duplicate, and assays were repeated at least three times. IC50 (inhibitory concentration that decreases enzymatic activity by 50%) was calculated using the statistical module of SigmaPlot v11.0 software. Evaluation of compounds against hGSK-3β was performed using human recombinant GSK-3β purchased from Millipore as described previously. Compounds were prepared as a 10 mM stock solution in DMSO.

[3] = read-out: L. pifanoi Axenic Amastigotes IC50
[4] = read-out: L. infantum Promastigotes IC50

SMILES | IC50 [1, 3] [µM] | IC50 [2, 4] [µM] | IC50 (LdGSK-3s; read-out: LdGSK-3s IC50) [µM] | IC50 ([1]; read-out: L. pifanoi Axenic Amastigotes IC50, tested form: HCl) [µM] | IC50 ([2]; read-out: L. infantum Promastigotes IC50, tested form: HCl) [µM] | IC50 (LdGSK-3s; read-out: LdGSK-3s IC50, tested form: HCl) [µM]
COC(=O)c1sc(C)c(C)c1O | > 50 | > 50 | > 10 | – | – | –
CCOC(=O)c1sc(NC(=O)CCc2cc(OC)c(OC)c(OC)c2)nc1C | > 50 | > 50 | > 10 | – | – | –
CCCCCCCC(=O)NNC(=O)c1c(O)c2ccccc2n(C)c1=O | 20.8 | > 50 | > 10 | – | – | –
CNS(=O)(=O)c1ccccc1CNC(=O)c1ccccc1 | > 50 | > 50 | > 10 | – | – | –
Cc1cccc(-c2nc(CN3CCC[C@@H](C(=O)NCc4ccncc4)C3)c(C)o2)c1 | > 50 | > 50 | > 10 | – | – | –
CN1C(=O)c2ccccc2S(=O)(=O)NC1=NCc1ccccc1 | > 50 | > 50 | > 10 | – | – | –
O=C(Cc1ccccc1)NCC(=O)OCC(=O)Nc1nc2ccccc2s1 | > 50 | > 50 | > 10 | – | – | –
COC(=O)c1ccccc1S(=O)(=O)N=C(N)N(C)C | > 50 | > 50 | > 10 | – | – | –
Cc1sc(NC(=O)COC(=O)CNC(=O)c2ccccc2)nc1-c1ccccc1 | > 50 | > 50 | > 10 | – | – | –
O=C1NS(=O)(=O)Nc2ccccc21 | > 50 | > 50 | > 10 | – | – | –
Cn1c(=O)c(C(=O)NCC(=O)NCC(=O)OCc2ccccc2)c(O)c2ccccc21 | > 50 | > 50 | > 10 | – | – | –
OCC(O)COc1cscc1-c1ccccc1 (stereo not drawn) | > 50 | > 50 | > 10 | – | – | –
COc1ccc(NC2=NS(=O)(=O)N=C2N)cc1OC | > 50 | > 50 | > 10 | – | – | –
CN(c1ccccc1Br)S(=O)(=O)c1nn(C)cc1N | – | – | – | > 50 | > 50 | > 10
Cn1c(=O)c(C(=O)NNC(=O)CC#N)c(O)c2ccccc21 | > 50 | > 50 | > 10 | – | – | –
O=C1C(=O)N(Cc2ccccc2)c2ccccc21 | > 50 | > 50 | > 10 | – | – | –
COc1ccccc1NC(=O)NCc1cccnc1 | > 50 | > 50 | > 10 | – | – | –
O=C(CNC(=O)c1ccccc1)NC(Cc1c[nH]c2ccccc12)C(=O)NCCN1CCOCC1 (stereo not drawn) | > 50 | > 50 | > 10 | – | – | –
Oc1ccc(CNc2ncnc3[nH]ccc23)cc1 | > 50 | > 50 | > 10 | – | – | –
CCSc1nc2c(Cl)cccc2c(=O)n1-c1c(F)cccc1F | > 50 | > 50 | > 10 | – | – | –
FC(F)(F)c1ccc(C(=Nc2ccccc2)NC(=S)NCc2cccnc2)cc1 | > 25 | > 25 | > 10 | – | – | –
O=c1c2ccccc2n(Cc2ccc(C(F)(F)F)cc2)c(=S)n1Cc1ccccc1 | > 50 | > 25 | > 10 | – | – | –
